Source: patent US9695127B2, “Compounds for treating HIV and methods for using the compounds” (University of Pittsburgh—Of the Commonwealth System of …, priority 2012, dated 2017)

Sequences of proteins named here, by UniProt entry; tags and fusion partners are left off. A line that says so, or that is headed by a name, gives the form on record, which may keep a tag or linker. Residues count along the entry.
UniProt P03407, whole entry: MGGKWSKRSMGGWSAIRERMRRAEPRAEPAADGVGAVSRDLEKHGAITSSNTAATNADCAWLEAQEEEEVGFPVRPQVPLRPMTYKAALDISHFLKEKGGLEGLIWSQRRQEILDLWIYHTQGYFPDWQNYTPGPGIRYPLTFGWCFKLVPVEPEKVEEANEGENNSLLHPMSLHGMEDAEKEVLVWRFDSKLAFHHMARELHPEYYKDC
UniProt P08631, 78-522 with tags or gaps limits assumed: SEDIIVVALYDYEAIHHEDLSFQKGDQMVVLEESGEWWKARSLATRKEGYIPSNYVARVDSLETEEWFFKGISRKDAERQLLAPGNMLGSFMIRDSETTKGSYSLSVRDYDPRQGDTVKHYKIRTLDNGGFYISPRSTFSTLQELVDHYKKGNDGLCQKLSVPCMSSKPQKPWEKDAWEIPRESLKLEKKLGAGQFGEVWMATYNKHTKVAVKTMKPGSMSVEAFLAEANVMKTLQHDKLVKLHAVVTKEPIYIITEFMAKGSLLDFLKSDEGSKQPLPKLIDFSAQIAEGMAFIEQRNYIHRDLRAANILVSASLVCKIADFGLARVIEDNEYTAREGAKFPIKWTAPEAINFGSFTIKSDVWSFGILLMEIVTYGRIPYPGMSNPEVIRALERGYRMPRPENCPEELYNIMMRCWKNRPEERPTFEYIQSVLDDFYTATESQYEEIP

Assays:
[1] = tested on: SIV quasispecies ΔB670; assay: SIV replication in CEM-174 cells (p27 Gag ELISA); details: read-out: IC50 SIV replication, 5 days
[2] = tested on: Nef-defective (ΔNef) HIV-1 NL4-3; assay: Nef-defective HIV-1 replication in CEM-T4 cells (p24 ELISA)
[3] = tested on: HIV-1 Nef Asn126 mutants (N126L, N126Q, N126A); assay: Surface plasmon resonance binding to Nef Asn126 mutants; details: compound held constant at 10 μM
[4] = tested on: endogenous Src-family kinase (SFK) activation; assay: Nef-mediated endogenous SFK activation in HIV-infected CEM-T4 cells (pY418 immunoblot); details: 1.0 μM
[5] = tested on: SIV ΔB670; assay: SIV infectivity in TZM-b1 reporter cells (luciferase); details: read-out: IC50 SIV infectivity, luciferase 48 hours
[6] = tested on: HIV-1 NL4-3 Nef chimeras (subtypes A1, A2, B, C, F1, F2, G, H, J, K, SF2); assay: HIV-1 Nef chimera replication in CEM-T4 cells (p24 ELISA); details: read-out: IC50 replication of HIV-1 Nef chimeras, all eleven chimeras, p24 ELISA 10 days
[7] = tested on: HIV-1 NL4-3
[8] = tested on: wild-type HIV-1 NL4-3; assay: HIV-1 replication in U87MG cells (p24 ELISA); format: cell-based
[9] = tested on: cell-surface MHC-I; assay: Nef-induced MHC-I downregulation in CEM-GFP cells (flow cytometry); details: CEM-GFP cells infected with HIV-1 WT NL43, 8 days
[10] = tested on: wild-type HIV-1 NL4-3; assay: HIV-1 replication in CEM-T4 cells (p24 ELISA); details: read-out: IC50 wild-type HIV-1 replication, p24 ELISA 9 days
[11] = tested on: cell-surface CD4; assay: Nef-induced CD4 downregulation in CEM-GFP cells (flow cytometry); details: CEM-GFP cells infected with HIV-1 WT NL43, 8 days
[12] = biological target: Nef:Hck complex (UniProt P03407+P08631, Q523E/Q524E/Q525I); details: for inhibition: 20 µM

NC(=S)n1nc(-c2ccc([N+](=O)[O-])cc2)c(N=Nc2cccc(Cl)c2)c1O
IC50 [1]: 1000 nM
Effect on replication of Nef-defective HIV ([2]; Nef chimera experiment, 0.3 and 1.0 μM): no effect
Replication of Nef-defective HIV-1 ([2]; highest concentration tested 3.0 μM): unaffected
Binding to Nef Asn126 mutants by SPR [3]: none of these mutants demonstrated detectable binding
Nef-dependent SFK activation (pY418) [4]: completely inhibited
IC50 [5]: 3000 nM
IC50 [6]: 300 nM
INFECTIVITY @ 3 μM % Inhibition vs. DMSO control ([7]; 3 μM, TZM-b1 reporter cells): 37.0%
Nef-mediated enhancement of HIV-1 infectivity ([7]; TZM-b1 cells, luciferase 48 hours, range of concentrations): inhibited Nef-mediated enhancement of HIV-1 infectivity in a concentration-dependent manner
REPLICATION @ 3 μM % Inhibition vs. DMSO control [8]: 47.4%
Reversal of Nef-mediated MHC-I downregulation [9]: reverse Nef-mediated MHC-I downregulation to the same extent observed in cells infected with Nef-defective HIV-1
IC50 [10]: 100 to 300 nM
Reversal of Nef-mediated CD4 downregulation [11]: reverse Nef-mediated CD4 downregulation to the same extent observed in cells infected with Nef-defective HIV-1

COc1ccc(NC(=O)CN2C(=O)C(=C3SC(=S)N(C4CCS(=O)(=O)C4)C3=O)c3ccccc32)cc1 (stereo not drawn)
IC50 [12]: 2870 nM
inhibition [12]: 109%

O=C(c1cnn(C(=O)c2cccc(S(=O)(=O)N3CCOCC3)c2)c1)c1ccccc1O
IC50 [12]: 2710 nM
inhibition [12]: 79.9%

NC(=S)n1nc(-c2ccc([N+](=O)[O-])cc2)c(N=Nc2ccc(Cl)cc2)c1O
IC50 [12]: 5360 nM
inhibition [12]: 123%

Cc1nc2ccc3nc(NC(=O)c4ccc5c(c4)OCCO5)sc3c2s1
IC50 [12]: 4780 nM
inhibition [12]: 92.5%
